Measured values from several laboratories, pooled; numbers as filed in NIAID ChemDB.

Shared fields: growth or infection tests; organism: Cryptococcus neoformans

An empty or dashed field is not shown.

structure | read by | read-out | strain or isolate | value
CN[C@H]1CC[C@@H](c2ccc(Cl)c(Cl)c2)c2ccccc21 | broth dilution | MFC | UM4 | 10 µg/mL
CN[C@@H]1[C@H](O[C@@H]2OC[C@@H](O)[C@H](O)[C@H]2O)[C@@H](O)[C@H](O[C@H]2c3cc(C)c(C(=O)N[C@H](C)C(=O)O)c(O)c3-c3c(cc4c(c3O)C(=O)c3cc(OC)cc(O)c3C4=O)[C@@H]2O)O[C@@H]1C |  | MIC | D49 | 0.8 µg/mL
CC(=O)C[C@@H]1C[C@H]2[C@H]([C@@H]3c4[nH]c5ccccc5c4CCN13)[C@H](O)C13CC/C=C\CCCCN1CC21CC/C=C\CCCNC13 |  | MIC |  | 3.5 µg/mL
O=C1S/C(=C\c2cccnc2)C(=O)N1CC(O)(Cn1nccn1)c1ccc(F)cc1F |  | MIC80 |  | 72.16 µg/mL
Clc1ccc(CC(Cn2ccnc2)c2ccccc2Cl)c(Cl)c1 |  | MIC |  | <1 µg/mL
COc1cc2ccnc3c2c(c1OC(=O)c1ccc(C(C)(C)C)cc1)N(C)C=C3 |  | EC50 |  | 1.5 µg/mL
CCCCCCCCCC(=O)NC(CCCN)C(=O)NC(CCCN)C(N)=O | broth dilution | MIC | ATCC 2344 | >100 µg/mL
Clc1ccc(CC(Cn2ccnc2)c2c(Cl)cccc2Cl)cc1 |  | MIC |  | 100 µg/mL
Nc1ncccc1-c1cc(Cc2ccc(COc3ccccn3)cc2)no1 | broth dilution | MIC50 |  | 0.25 µg/mL
CCCCCCCCC(Cn1ccnc1)c1ccccc1Cl |  | MIC |  | 10 µg/mL
COc1cccc(C(=O)Oc2c(OC)cc3ccnc4c3c2N(C)C=C4)c1 |  | EC50 |  | >15 µg/mL
CCCCCCCC(Cn1ccnc1)c1ccccc1Br |  | MIC |  | <1 µg/mL
CCCCCOc1ccc(-c2cc(-c3ccc(C(=O)N[C@H]4C[C@@H](O)[C@@H](O)NC(=O)[C@@H]5[C@@H](O)[C@@H](C)CN5C(=O)[C@H]([C@H](O)CC(N)=O)NC(=O)[C@H]([C@H](O)[C@@H](O)c5ccc(O)c(OS(=O)(=O)O)c5)NC(=O)[C@@H]5C[C@@H](O)CN5C(=O)[C@H]([C@@H](C)O)NC4=O)cc3)no2)cc1 | broth dilution | MIC50 |  | >32 µg/mL
CCCCCC(Cn1ccnc1)c1ccccc1Br |  | MIC |  | 10 µg/mL
CCCCCCCC(=O)NC(CCCN)C(=O)NC(CCCN)C(=O)NC(CCCN)C(=O)NC(CCCN)C(N)=O | broth dilution | MIC | ATCC 2344 | >100 µg/mL
CCCCCCC(Cn1ccnc1)c1c(Cl)cccc1Cl |  | MIC |  | <1 µg/mL
COc1cc2ccnc3c2c(c1OC(=O)CSc1ccccc1)N(C)C=C3 |  | EC50 |  | >15 µg/mL
CCCCCCCCCCCCCCCC(=O)NC(CCCN)C(=O)NC(CCCN)C(N)=O | broth dilution | MIC | ATCC 2344 | 6.25 µg/mL
O=C1S/C(=C\c2ccco2)C(=O)N1CC(O)(Cn1nccn1)c1ccc(F)cc1F |  | MIC80 |  | 4.62 µg/mL
CCCCCCCCCCCC(=O)NC(CCCN)C(=O)NC(CCCN)C(=O)NC(CCCN)C(N)=O | broth dilution | MIC | ATCC 2344 | 25 µg/mL
O=C1S/C(=C\c2cccs2)C(=O)N1CC(O)(Cn1nccn1)c1ccc(F)cc1F |  | MIC80 |  | 8.92 µg/mL
C[C@@H](SC1COC(/C=C/C=C/c2ccc(C#N)cc2F)OC1)[C@](O)(Cn1cncn1)c1ccc(F)cc1F |  | MIC50 | 22 strains | ≤0.008 µg/mL
COc1cc2ccnc3c2c(c1OC(=O)c1cc(F)ccc1F)N(C)C=C3 |  | EC50 |  | >15 µg/mL
Clc1ccc(CC(Cn2ccnc2)c2c(Cl)cccc2Cl)c(Cl)c1 |  | MIC |  | 10 µg/mL
COc1cc2ccnc3c2c(c1OC(=O)c1ccc(F)cc1)N(C)C=C3 |  | EC50 |  | >15 µg/mL
C[C@H]1[C@H](O)[C@@H](C)/C=C/C=C/C=C/C=C/C=C/C=C/C=C/[C@H](O[C@@H]2O[C@H](C)[C@@H](O)[C@H](N)[C@@H]2O)C[C@@H]2O[C@](O)(C[C@@H](O)C[C@@H](O)CC[C@H](O)[C@@H](O)C[C@@H](O)CC(=O)O[C@H]1C)C[C@H](O)[C@H]2C(=O)O |  | MIC90 | 37 strains | 0.5 µg/mL
COc1cc2ccnc3c2c(c1OC(=O)c1ccc(C)cc1)N(C)C=C3 |  | MIC |  | 20 µg/mL
COc1ccc(/C=C2\SC(=O)N(CC(O)(Cn3nccn3)c3ccc(F)cc3F)C2=O)cc1 |  | MIC80 |  | 4.23 µg/mL
CC(N1CCN(c2ccc(-n3cnnn3)cc2)C1=O)[C@@](O)(Cn1cncn1)c1ccc(F)cc1F |  | MIC | TIMM1740 | >16 µg/mL
OC(c1cc(-c2ccccc2)nc2c(Cl)cc(Cl)cc12)C1CCCCN1 |  | MIC | ATCC90112 | 1.5 µg/mL
CNC(NC)c1ccc2cc(-n3cc(CCCO)nn3)c(=O)oc2c1 | broth dilution | MIC | ATCC 24067 | >750 µg/mL
CCCCCCCC(Cn1ccnc1)c1ccc(Cl)cc1 |  | MIC |  | <1 µg/mL
OC(c1cc(C2CC3CCC2CC3)nc2c(Cl)cc(Cl)cc12)C1CCCCN1 |  | MIC | ATCC90112 | 0.4 µg/mL
C[C@@H](N1CCN(c2ccc(-n3cnnn3)cc2)C1=O)[C@@](O)(Cn1cncn1)c1ccc(F)cc1F |  | MIC | TIMM1740 | >16 µg/mL
CCCCCCCCC(Cn1ccnc1)c1ccc(Br)cc1 |  | MIC |  | >100 µg/mL
CCCCCCCCCCCCCCCC(=O)NC(CCCN)C(=O)NC(CCCN)C(=O)NC(CCCN)C(N)=O | broth dilution | MIC | ATCC 2344 | 6.25 µg/mL
CCCCCCCC(Cn1ccnc1)c1ccc(Cl)cc1Cl |  | MIC |  | <1 µg/mL
COc1ccc(CC(Cn2ccnc2)c2ccc(Cl)cc2Cl)cc1 |  | MIC |  | <1 µg/mL
CCCCC(Cn1ccnc1)c1c(Cl)cccc1Cl |  | MIC |  | <1 µg/mL
Clc1ccc(CC(Cn2ccnc2)c2ccccc2Cl)cc1 |  | MIC |  | <1 µg/mL
CCCCCCCC(=O)NC(CCCN)C(N)=O | broth dilution | MIC | ATCC 2344 | >100 µg/mL
COc1ccc(CCC(Cn2ccnc2)c2ccc(Cl)cc2Cl)cc1 |  | MIC |  | <1 µg/mL
O=C1S/C(=C\c2ccccc2Br)C(=O)N1CC(O)(Cn1nccn1)c1ccc(F)cc1F |  | MIC80 | CNCYP51 | 30.69 µg/mL
COc1cc2ccnc3c2c(c1OC(=O)c1ccc(F)c(F)c1)N(C)C=C3 |  | EC50 |  | >15 µg/mL

Again, the opening 5 rows:

structure	read by	read-out	strain or isolate	value
CN[C@H]1CC[C@@H](c2ccc(Cl)c(Cl)c2)c2ccccc21	broth dilution	MFC	UM4	10 µg/mL
CN[C@@H]1[C@H](O[C@@H]2OC[C@@H](O)[C@H](O)[C@H]2O)[C@@H](O)[C@H](O[C@H]2c3cc(C)c(C(=O)N[C@H](C)C(=O)O)c(O)c3-c3c(cc4c(c3O)C(=O)c3cc(OC)cc(O)c3C4=O)[C@@H]2O)O[C@@H]1C		MIC	D49	0.8 µg/mL
CC(=O)C[C@@H]1C[C@H]2[C@H]([C@@H]3c4[nH]c5ccccc5c4CCN13)[C@H](O)C13CC/C=C\CCCCN1CC21CC/C=C\CCCNC13		MIC		3.5 µg/mL
O=C1S/C(=C\c2cccnc2)C(=O)N1CC(O)(Cn1nccn1)c1ccc(F)cc1F		MIC80		72.16 µg/mL
Clc1ccc(CC(Cn2ccnc2)c2ccccc2Cl)c(Cl)c1		MIC		<1 µg/mL

ECn: concentration that inhibits the pathogen or its effect by n%. MIC50, MIC90 and the like: level of inhibition, or share of isolates inhibited. Lines come from different laboratories, so protocols vary.